Compound potency records, mixed from different reports. Data source: NIAID ChemDB in PubChem.

Shared fields: whole-cell or culture tests; agent: Mycobacterium tuberculosis

MIC bound: limit read from a one-dose screen. Inhibition is in % at the dose shown (toxicity tests: loss of growth or viability). An empty or dashed field is not shown. MIC50, MIC90 and the like: level of inhibition, or share of isolates inhibited. ECn is the concentration giving n% inhibition of infection, replication or growth. Lines come from different laboratories, so protocols vary. Two numbers with a dash give a range or band.

SMILES,cells,strain or isolate,read by,changes,read-out,dose,result
COc1cc([C@@H]2OC[C@@]3(O)[C@@H]2CO[C@H]3c2ccc(O)c(OC)c2)ccc1O,-,H37Rv,-,-,MIC,-,127 µg/mL
CSC(=S)NNC(C)c1nccc2ccccc12,-,CS-R,-,-,MIC,-,3.2 µg/mL
Cc1ccc(-c2cnnc(N3CCC(c4ccccc4)C3)n2)o1,-,H37Rv,resazurin,-,MIC,-,40.5 µM
Cc1ccc(C(N)=S)cc1,-,H37Rv (INH-resistant),-,-,MIC,-,512 µM
CCc1ccc(-c2nc3cc(C(C)(C)C)cc(C(C)(C)C)c3o2)o1,-,H37Rv,BACTEC,-,inhibition,6.25 µg/mL,<90%
CC[C@@H](CO)NCCN[C@@H](CC)CO,-,Praha 4,broth dilution,MDR,MIC99,-,16 µM
CC(C)(C)c1cc(C(C)(C)C)c2oc(-c3ccncc3)nc2c1,-,H37Rv,-,-,MIC,-,32 µg/mL
Cn1c(=O)c2nc(-c3ccccc3)c(-c3ccccc3)nc2n(C)c1=O,-,H37Rv,BACTEC,-,inhibition,12.5 µg/mL,0%
COc1cccc(N2CCN(CN3C(=O)/C(=N\c4ncc(Cc5cc(OC)c(OC)c(OC)c5)c(N)n4)c4cc(Br)ccc43)CC2)c1,-,-,BACTEC,-,inhibition,6.25 µg/mL,43%
O=S(=O)(O)CCCN1c2ccccc2Sc2ccc(C(F)(F)F)cc21,-,H37Rv-GFP,fluorescence,gfp,MIC,-,25 µg/mL
CO[C@H]1/C=C/O[C@@]2(C)Oc3c(C)c(O)c4c(O)c(c(/C=N/N5CCN(C)CC5)c(O)c4c3C2=O)NC(=O)/C(C)=C\C=C\[C@H](C)[C@H](O)[C@@H](C)[C@@H](O)[C@@H](C)[C@H](OC(C)=O)[C@@H]1C,-,Praha 131,broth dilution,MDR,MIC99,-,>8 µM
C[C@H]1[C@H](C)CC[C@]2(C(=O)O)CC[C@]3(C)C(=CC[C@@H]4[C@@]5(C)CC[C@H](O)C(C)(C)[C@@H]5CC[C@]43C)[C@H]12,-,H37Rv,-,-,MIC,-,41.9 µg/mL
Cc1ccc2nc(N=C([S-])[S-])sc2c1.[K+].[K+],-,H37Rv,BACTEC,-,inhibition,12.5 µg/mL,3%
CC(C)(C)c1cc(C(C)(C)C)c2oc(-c3ccccc3)nc2c1,-,H37Rv,BACTEC,-,inhibition,6.25 µg/mL,<90%
CC(=O)NC[C@H]1CN(c2ccc(-c3ccc(CNCCCF)cc3)c(F)c2)C(=O)O1,-,H37Rv,resazurin,-,EC90,-,0.06 µg/mL
NNC(=O)c1ccncc1,-,234/2005,broth dilution,MDR,MIC99,-,16 µM
Cc1c(F)c(N2CCNC(C)C2)cc2c1c(=O)c(C(=O)O)cn2C1CC1,-,-,-,-,MIC90,-,0.78 µg/mL
Cc1cc(C(N)=S)ccn1,-,H37Rv (INH-resistant),-,-,MIC,-,512 µM
CN[C@@H]1[C@@H](O)[C@@H](O[C@@H]2[C@@H](O)[C@H](O[C@H]3O[C@H](CN)CC[C@H]3N)[C@@H](N)C[C@H]2N)OC[C@]1(C)O,-,Praha 1,broth dilution,MDR,MIC99,-,1 µM
O=C(Cc1ccccc1)N[C@@H]1C(=O)N2C3=C(CSC12)CN(C(=O)c1ccc(C(F)(F)F)cc1)OC3=O,-,H37Rv,-,-,MIC,-,9.8 µM
COc1cc(Cc2cnc(/N=C3\C(=O)N(CN4CCN(c5ccccn5)CC4)c4ccc(Br)cc43)nc2N)cc(OC)c1OC,-,-,BACTEC,-,inhibition,6.25 µg/mL,62%
CN(C)CCCN1c2ccccc2Sc2ccc(Cl)cc21,-,H37Rv-GFP,fluorescence,gfp,MIC,-,6 µg/mL
COc1cc([C@H]2OC[C@]3(O)[C@@H](c4ccc(O)c(OC)c4)OC[C@H]23)ccc1O,-,H37Rv,-,-,MIC,-,>128 µg/mL
O=C(Cc1ccccc1)N[C@@H]1C(=O)N2C(C(=O)O)=C(CN(O)C(=O)c3ccc(C(F)(F)F)cc3)CSC12,-,H37Rv,-,-,MIC,-,86 µM
Cc1cccc(-c2nsc(SCC(=O)N3CCCCC3)n2)c1,-,H37Rv,low oxygen,-,MIC90,-,1.3 µM
CC(C)(C)c1cc(C(C)(C)C)c2oc(-c3ccccn3)nc2c1,-,H37Rv,-,-,MIC,-,64 µg/mL
Cc1ccc(C(=O)N(O)CC2=C(C(=O)O)N3C(=O)[C@@H](NC(=O)Cc4ccccc4)C3SC2)cc1,-,H37Rv,-,-,MIC,-,31 µM
NC(=S)c1ccccn1,-,H37Rv (drug-susceptible),-,-,MIC,-,256 µM
O=C(O)C(Cc1ccc(I)cc1)Nc1nc(-c2ccc(Cl)c(Cl)c2)cs1,-,H37Rv,broth dilution,-,MIC99,-,>100 µg/mL
CCn1cc(C(=O)O)c(=O)c2cc(F)c(N3CCN(CN4C(=O)/C(=N\c5ncc(Cc6cc(OC)c(OC)c(OC)c6)c(N)n5)c5cc(Br)ccc54)C(C)C3)c(F)c21,-,-,BACTEC,-,inhibition,6.25 µg/mL,0%
C=C1C(=O)[C@@]23CC[C@H]4C(C)(CCC[C@@]4(C)C(=O)OC)[C@@H]2CC[C@]1(O)C3,-,PZA-R,-,-,MIC,-,6.3 µg/mL
NNC(=O)c1ccccn1,-,H37Rv (INH-resistant),-,-,MIC,-,512 µM
COc1cc(Cc2cnc(/N=C3\C(=O)N(CN4CCN(c5cc6c(cc5F)c(=O)c(C(=O)O)cn6C5CC5)CC4)c4ccc(Br)cc43)nc2N)cc(OC)c1OC,-,-,BACTEC,-,inhibition,6.25 µg/mL,0%
Cn1nc(-c2ccc(C(=O)Nc3ccc(Cl)cc3)s2)cc1C(F)(F)F,-,H37Rv,low oxygen,-,MIC90,-,2.9 µM
CC1(C)OC2C(O)C(O)C3OC(C)(C)OC3C2O1,-,H37Rv,BACTEC,-,inhibition,12.5 µg/mL,0%
COc1ccc(C(=O)Nc2ccc(C(=O)NN3C(=O)CSC3c3ccc(Cl)cc3)cc2)cc1,-,H37Rv,-,-,inhibition,6.25 µg/mL,40%
NC(=S)c1ccncc1,-,H37Rv (drug-susceptible),-,-,MIC,-,128 µM
CCCCCC[N+]1([O-])CC[N+]([O-])(CCCCCC)CC1,-,H37Rv,BACTEC,-,MIC,-,≥12.5 µg/mL
COc1ccc2cc1Oc1ccc(cc1)CCC(=O)OCCC2,-,H37Rv,resazurin,-,EC50,-,>100 µg/mL
CC(C)C[C@H](NC(=O)CNC(=O)C=Cc1ccco1)C(N)=O,-,H37Rv,BACTEC,-,MIC bound,-,>12.5 µg/mL
Cc1c(Cl)c(=O)oc2cc(OCc3ccccc3)ccc12,-,H37Rv,fluorescence,-,inhibition,1 µM,2.7%
Cc1ccc(Nc2nnc(-c3ccc(N=Cc4ccccc4O)cc3)s2)cc1,-,H37Rv,-,-,inhibition,6.25 µg/mL,34%
CC(C)(C)c1cc(C(C)(C)C)c2oc(CO)nc2c1,-,H37Rv,BACTEC,-,inhibition,6.25 µg/mL,<90%
O=S(=O)(O)CCCN1c2ccccc2Sc2ccccc21,-,H37Rv-GFP,fluorescence,gfp,MIC,-,12.5 µg/mL
CC(C)(C)c1cc(C(C)(C)C)c2oc(-c3ccco3)nc2c1,-,H37Rv,BACTEC,-,inhibition,6.25 µg/mL,<90%
CC#CC#C/C=C1\C=CC2(OC=CC2OC(C)=O)O1,-,ETA-R,-,-,MIC,-,6.3 µg/mL
COc1cc(Cc2cnc(/N=C3\C(=O)N(CN4CCN(c5cccc(Cl)c5)CC4)c4ccc(Br)cc43)nc2N)cc(OC)c1OC,-,-,BACTEC,-,inhibition,6.25 µg/mL,89%
Cc1cc(=O)oc2cc(OCc3ccc(Br)cc3)ccc12,-,H37Rv,fluorescence,-,inhibition,50 µM,59.14%
O=c1[nH]c2nc3ccccc3c(=O)n2nc1Cc1ccccc1,-,H37Rv,BACTEC,-,MIC bound,-,>12.5 µg/mL
COc1ccc(-c2cc(=O)c3c(O)cc(O)cc3o2)cc1O,-,H37Rv,-,-,MIC,-,>128 µg/mL
COC(=O)C1(NC(=O)C(C)NC(=O)C(CCCCN)NC(=O)C(CC(C)C)NC(C)=O)CCCC1,-,H37Rv,BACTEC,-,inhibition,12.5 µg/mL,18%
COc1ccc(C(N)=S)cc1,-,H37Rv,-,-,MIC,-,64 µM
O=C(Cc1ccccc1)N[C@@H]1C(=O)N2C(C(=O)O)=C(CN(O)C(=O)c3ccccc3)CSC12,-,H37Rv,-,-,MIC,-,63.7 µM
COc1ccc(C(=O)Nc2ccc(C(=O)N/N=C/c3ccc([N+](=O)[O-])o3)cc2)cc1,-,H37Rv,-,-,MIC,-,>6.25 µg/mL
O=[N+]([O-])c1cccc(C=Nc2ccc(-c3nnc(Nc4ccccc4)s3)cc2)c1,-,H37Rv,-,-,inhibition,6.25 µg/mL,29%
NC(=S)c1ccc(Cl)cc1,-,H37Rv,-,-,MIC,-,512 µM
COc1cc(Cc2cnc(/N=C3\C(=O)N(CN4CCOCC4)c4ccc(Br)cc43)nc2N)cc(OC)c1OC,-,-,BACTEC,-,inhibition,6.25 µg/mL,94%
C=C(C)[C@@H]1CC[C@]2(C(=O)O)CC[C@]3(C)C(CCC4[C@@]5(C)CC[C@H](O)C(C)(C)C5CC[C@]43C)C12,-,H37Rv,-,-,MIC,-,62.1 µg/mL
COc1ccc(C(=O)Nc2ccc(C(=O)N/N=C3\SCC(=O)N3C)cc2)cc1,-,H37Rv,-,-,inhibition,6.25 µg/mL,0%
CCNc1nnc(-c2ccc(N=Cc3ccccc3O)cc2)s1,-,H37Rv,-,-,inhibition,6.25 µg/mL,0%
CCOc1ccc(NC(=O)/C(CC(=O)c2c[n+](=O)c3ccccc3n2[O-])=N/OCCCc2ccccc2)cc1,-,H37Rv,BACTEC,-,MIC,-,≥12.5 µg/mL
NC(=S)c1cccnc1,-,H37Rv (drug-susceptible),-,-,MIC,-,512–1024 µM
NNC(=O)CC(NN)c1ccccc1O,-,H37Rv,BACTEC,-,inhibition,12.5 µg/mL,9%
Cc1c(Cl)c(=O)oc2cc(OCCN3CCN(Cc4ccc(Br)cc4)CC3)ccc12,-,H37Rv,fluorescence,-,inhibition,1 µM,2.97%
CC(=O)OC1C(=O)OCC23CCC4(C)OC4C2OC2CC(OC(=O)/C=C\C=C\C(=O)OCCC1C)C3(C)C13CC21O3,-,H37Rv,BACTEC,-,MIC bound,-,>12.5 µg/mL
CSc1ccc2c(c1)N(CCCS(=O)(=O)O)c1ccccc1S2,-,H37Rv-GFP,fluorescence,gfp,MIC,-,25 µg/mL
COC(=O)c1ccc(N(C)CCC(=O)CNc2nc(N)[nH]c(=O)c2[N+](=O)[O-])cc1,-,H37Rv,BACTEC,-,MIC bound,-,>12.5 µg/mL
CCNc1nnc(-c2ccc(N=Cc3ccc([N+](=O)[O-])o3)cc2)s1,-,H37Rv,-,-,inhibition,6.25 µg/mL,0%
COc1ccc2cc1Oc1ccc(cc1)CC1c3c(cc(OC)c4c3Oc3cc5c(cc3O4)CCNC5C2)CCN1C,VERO,H37Rv,BACTEC,-,MIC,-,12.5 µg/mL
COc1ccc(C(=O)Nc2ccc(-c3nnc(Nc4ccccc4)o3)cc2)cc1,-,H37Rv,-,-,inhibition,6.25 µg/mL,7%
O=c1ccc2ccc(OCc3ccc(Br)cc3)cc2o1,-,H37Rv,fluorescence,-,inhibition,100 µM,36.37%
O=[N+]([O-])c1cccc(C=Nc2ccc(-c3nnc(NCc4ccccc4)s3)cc2)c1,-,H37Rv,-,-,inhibition,6.25 µg/mL,0%
CC/C(C)=N\NC(=O)c1cccnc1,-,H37Rv,BACTEC,-,MIC bound,-,>12.5 µg/mL
CN[C@@H]1[C@H](O[C@H]2[C@H](O[C@H]3[C@H](O)[C@@H](O)[C@H](N=C(N)N)[C@@H](O)[C@@H]3N=C(N)N)O[C@@H](C)[C@]2(O)C=O)O[C@@H](CO)[C@H](O)[C@H]1O,-,9449/2007,broth dilution,MDR,MIC99,-,>32 µM
COc1cc(/C=C/C(=O)O)ccc1O,-,H37Rv,-,-,MIC,-,>128 µg/mL
COc1cc(Cc2cnc(/N=C3\C(=O)N(CN4CCN(c5c(F)cc6c(=O)c(C(=O)O)cn(C7CC7)c6c5OC)CC4C)c4ccc(Br)cc43)nc2N)cc(OC)c1OC,-,-,BACTEC,-,inhibition,6.25 µg/mL,0%
CC(C)CCOCC(O)CNCCNCC(O)COCCC(C)C,-,H37Rv,-,-,MIC bound,-,>6.25 µg/mL
Cc1ccc(-c2nc3cc(C(C)(C)C)cc(C(C)(C)C)c3o2)cc1,-,H37Rv,BACTEC,-,inhibition,6.25 µg/mL,<90%
O=[N+]([O-])CC1=CCCCC1,-,H37Rv,BACTEC,-,MIC,-,>12.5 µg/mL
CC(C)N=c1cc2n(-c3ccc(Cl)cc3)c3ccccc3nc-2cc1Nc1ccc(Cl)cc1,-,Praha 1,broth dilution,MDR,MIC99,-,0.5 µM
N#Cc1c(N)[nH]c(S)c1C#N,-,H37Rv,BACTEC,-,inhibition,12.5 µg/mL,0%
O=C(Cc1ccccc1)N[C@@H]1C(=O)N2C3=C(CSC12)CN(C(=O)c1ccccc1)OC3=O,-,H37Rv,-,-,MIC,-,126 µM